Compound potency records, mixed from different reports. Data source: NIAID ChemDB in PubChem.

All rows: whole-cell or culture tests; organism: HIV-1; cell line: CEM + CEM-SS; measure: EC50

An empty or dashed field is not shown.

structure,strain,changes,read by,value
Cc1ccnc2c1NC(=O)c1cccnc1N2C1CC1,4xAZT(RT-D67N K70R T215Y K219Q),RT-D67N K70R T215Y K219Q,cytopathic effect / XTT,0.02 µM
CCOCn1c([Se]c2cccc(C)c2)c(CC)c(=O)[nH]c1=S,RF,-,cytopathic effect / XTT,0.02 µM
Cc1cn([C@H]2C[C@H](N=[N+]=[N-])[C@@H](CO)O2)c(=O)[nH]c1=O,RF,-,cytopathic effect / XTT,0.002 µM
CCCc1cc(=O)oc2c3c(c4c(c12)OC(C)(C)C=C4)O[C@H](C)C(C)(C)C3=O,IIIB,-,cytopathic effect / MTT,>19.3 µM
CC(C)c1cc(=O)oc2c3c(c4c(c12)OC(C)(C)C=C4)OC(C)C(C)C3=O,RF,-,-,5.57 µM
Fc1cccc(F)c1C1SCc2nc3ccccc3n21,Dihydrocostatolide-resistant (RT-L100I),RT-L100I,XTT,22.8 µM
CCc1c(Sc2ccccn2)n(COCc2ccccc2)c(=O)[nH]c1=O,NL4-3,RT-K103E,cytopathic effect / XTT,0.35 µM
CCOCn1c([Se]c2cc(F)cc(F)c2)c(C(C)C)c(=O)[nH]c1=O,RF,-,cytopathic effect / XTT,0.019 µM
COc1ccc(/C=C2\CN(C)CC3=C2OC(N)=C(C#N)C3c2ccc(OC)cc2)cc1,RF,-,cytopathic effect / XTT,>30.4 µM
O=[N+]([O-])c1ccccc1Sc1ccccc1,RF,-,cytopathic effect / XTT,43 µM
O=S1(c2ccccc2)=NC(=S)Nc2ccc(Cl)cc21,IIIB,-,cytopathic effect / XTT,0.16 µM
Cc1cn([C@H]2C[C@H](N=[N+]=[N-])[C@@H](CO)O2)c(=O)[nH]c1=O,LAI,-,RT activity,0.014 µM
Nc1ccn([C@H]2CC[C@@H](CO)O2)c(=O)n1,RF,-,cytopathic effect / XTT,0.19 µM
CC(C)c1cc(=O)oc2c3c(c4c(c12)OC(C)(C)C=C4)C[C@H](C)[C@@H](C)[C@@H]3O,IIIB,-,-,0.1 µM
Cc1c(Sc2ccccc2)n(COCCO)c(=O)[nH]c1=O,IIIB,RT-P236L,cytopathic effect / XTT,>325 µM
CCCc1cc(=O)oc2c3c(c4c(c12)OC(C)(C)C=C4)O[C@H](C)[C@@H](C)[C@@H]3O,RF,-,syncytia,0.08 µM
CCCc1cc(=O)oc2c3c(c4c(c12)OC(C)(C)C=C4)O[C@@H](C)[C@H](C)[C@@H]3O,NL4-3,RT-K103N,cytopathic effect / XTT,1.2 µM
CCc1c(C(=O)c2cc(C)cc(C)c2)n(CC2CC=CC2)c(=O)[nH]c1=O,IIIB,-,cytopathic effect / XTT,0.0009 µM
O=[N+]([O-])c1ccccc1S(=O)(=O)c1ccccc1,TP1,-,-,8.78 µM
CCOCn1c([Se]c2cc(F)cc(F)c2)c(C(C)C)c(=O)[nH]c1=S,RF,-,cytopathic effect / XTT,0.071 µM
O=S(=O)(c1ccccc1)c1ccccc1,UC040-R (RT-Y181C),RT-Y181C,cytopathic effect / XTT,>114 µM
Cc1ccnc2c1NC(=O)c1cccnc1N2C1CC1,4xAZT(RT-D67N K70R T215Y K219Q),RT-D67N K70R T215Y K219Q,cytopathic effect / XTT,0.02 µM
C/C=C/CSc1cc(NC(=S)c2ccsc2C)ccc1Cl,Isolate NL4-3,-,cytopathic effect / XTT,0.05 µM
CC1=C(C(=O)Nc2ccccc2)SCCO1,RF,-,XTT,>100 µM
O=S1(c2ccccc2)=NC(=S)Nc2ccccc21,PM16,-,cytopathic effect / XTT,5.11 µM
O=c1[nH]cnc2c1ncn2[C@H]1CC[C@@H](CO)O1,IIIB,-,cytopathic effect,4.3 µM
CC(C)c1cc(=O)oc2c3c(c4c(c12)OC(C)(C)C=C4)O[C@@H](C)[C@H](C)C3=O,SKI,-,-,0.9 µM
NCCCCCCNC(=O)/C=C/c1cn([C@H]2C=C[C@@H](CO)O2)c(=O)[nH]c1=O,LAI,-,RT activity,>100 µM
CCCc1cc(=O)oc2c3c(c4c(c12)OC(C)(C)C=C4)O[C@@H](C)[C@H](C)[C@@H]3N,RF,-,-,0.6 µM
COc1ccc(/C=C2\CN(C)CC3C2=NN(c2ccccc2)C3c2ccc(OC)cc2)cc1,RF,-,cytopathic effect / XTT,>200 µM
Cc1cn([C@H]2C[C@H](N=[N+]=[N-])[C@@H](CO)O2)c(=O)[nH]c1=O,PM16,-,cytopathic effect / XTT,0.002 µM
Cc1ccnc2c1NC(=O)c1cccnc1N2C1CC1,NL4-3,RT-V179D,XTT,0.03 µM
CC(C)=CCOc1cc(NC(=S)c2ccoc2C)ccc1Cl,SK1,-,-,0.006 µM
CCc1c(Sc2ccccn2)n(COCc2ccccc2)c(=O)[nH]c1=O,Dihydrocostatolide-resistant (RT-L100I),RT-L100I,XTT,0.08 µM
CN1CC2=C(NC(=S)NC2c2cccs2)/C(=C/c2cccs2)C1,RF,-,cytopathic effect / XTT,>34 µM
Cc1ccc(S(=O)(=O)c2ccccn2)cc1,RF,-,cytopathic effect / XTT,92 µM
Cc1occc1C(=S)Nc1ccc(Cl)c(/C=N/OC(C)(C)C)c1,UC781-R (RT-Y181C),RT-Y181C,cytopathic effect / XTT,0.9 µM
CCCc1cc(=O)oc2c(C(=O)C(C)(C)C(C)O)c(O)c3c(c12)OC(C)(C)C=C3,IIIB,-,cytopathic effect / MTT,>37 µM
CCCc1cc(=O)oc2c3c(c4c(c12)OC(C)(C)C=C4)O[C@H](C)[C@@H](C)[C@@H]3O,NL4-3(RT-4XAZT+L100I),RT-D67N K70R L100I T215Y K219Q,XTT,1.5 µM
CCCc1cc(=O)oc2c3c(c4c(c12)OC(C)(C)CC4)O[C@@H](C)[C@H](C)[C@@H]3O,RF,-,RT activity,0.12 µM
CCOCn1c([Se]c2cccc(C)c2)c(C(C)C)c(=O)[nH]c1=O,RF,-,cytopathic effect / XTT,0.0081 µM
Cc1cn([C@H]2C[C@H](N=[N+]=[N-])[C@@H](CO)O2)c(=O)[nH]c1=O,IIIB,-,cytopathic effect / XTT,0.004 µM
Cc1ccc(OS(=O)(=O)c2ccccc2[N+](=O)[O-])cc1,RF,-,cytopathic effect / XTT,4.3 µM
COc1c(O)ccc(C(=O)N[C@@H](CSc2ccccc2)[C@H](O)CN2C[C@H]3CCCC[C@H]3C[C@H]2C(=O)NC(C)(C)C)c1C,RF,-,cytopathic effect / MTT,0.1508 µM
CC(C)[C@H]1C(=O)O[C@H](C(C)C)C(=O)N(C)[C@@H](C(C)C)C(=O)O[C@H](C(C)C)C(=O)N(C)[C@@H](C(C)C)C(=O)O[C@H](C(C)C)C(=O)N1C,-,-,cytopathic effect / XTT,0.01 µg/mL
CN1N=C(N)c2cn([C@@H]3O[C@H](COP(=O)(O)O)[C@@H](O)[C@H]3O)c3ncnc1c23,214,-,XTT,0.08 µM
Cc1cn([C@H]2C[C@H](N=[N+]=[N-])[C@@H](CO)O2)c(=O)[nH]c1=O,NL4-3,RT-V108I,cytopathic effect / XTT,0.01 µM
CCCc1cc(=O)oc2c3c(c4c(c12)OC(C)(C)C=C4)O[C@H](CC)[C@H](C)[C@@H]3O,IIIB,-,cytopathic effect / MTT,>20.9 µM
Nc1ncnc2c1ncn2[C@H]1CC[C@@H](CO)O1,IIIB,-,cytopathic effect,0.54 µM
Cc1cn([C@H]2C[C@H](N=[N+]=[N-])[C@@H](CO)O2)c(=O)[nH]c1=O,IIIB,-,cytopathic effect / XTT,0.003 µM
Cc1cc(C)cc([Se]c2c(C(C)C)c(=O)[nH]c(=O)n2COCCO)c1,RF,-,cytopathic effect / XTT,0.019 µM
Cc1cn([C@H]2C[C@H](N=[N+]=[N-])[C@@H](CO)O2)c(=O)[nH]c1=O,NL4-3,RT-V108I,XTT,0.008 µM
Cc1ccc(/C=C2\CN(C)CC3C2=NN(c2ccccc2)C3c2ccc(C)cc2)cc1,RF,-,cytopathic effect / XTT,>200 µM

Again, the opening 4 rows:

{"structure": "Cc1ccnc2c1NC(=O)c1cccnc1N2C1CC1", "strain": "4xAZT(RT-D67N K70R T215Y K219Q)", "changes": "RT-D67N K70R T215Y K219Q", "read by": "cytopathic effect / XTT", "value": "0.02 µM"}
{"structure": "CCOCn1c([Se]c2cccc(C)c2)c(CC)c(=O)[nH]c1=S", "strain": "RF", "read by": "cytopathic effect / XTT", "value": "0.02 µM"}
{"structure": "Cc1cn([C@H]2C[C@H](N=[N+]=[N-])[C@@H](CO)O2)c(=O)[nH]c1=O", "strain": "RF", "read by": "cytopathic effect / XTT", "value": "0.002 µM"}
{"structure": "CCCc1cc(=O)oc2c3c(c4c(c12)OC(C)(C)C=C4)O[C@H](C)C(C)(C)C3=O", "strain": "IIIB", "read by": "cytopathic effect / MTT", "value": ">19.3 µM"}

Conditions beyond the fields shown may differ between rows. ECn: concentration that inhibits the pathogen or its effect by n%.